Pooled drug test results. Numbers come from NIAID ChemDB, via PubChem.

Fold resistance has wild type as its base. ECn is the concentration giving n% inhibition of infection, replication or growth. Percent inhibition refers to the dose given; in toxicity tests it is the harm to the cells. ICn is the concentration giving n% inhibition. MIC50, MIC90 and the like: level of inhibition, or share of isolates inhibited. Neighbouring rows are from separate reports. An empty or dashed field is not shown.

SMILES | protein | cell line | agent | dose | measure | strain or isolate | test | changes | method | result
C=CCN(C(=O)OCc1ccc([N+](=O)[O-])cc1)C1CCN(CC[C@](C)(CN(C)S(=O)(=O)c2ccccc2)c2ccccc2)CC1 | CCR5 | - | - | - | IC50 | - | target | CCR5-E283A | radiometric | 1 µM
CCC[C@H](NC(=O)[C@@H]1[C@H]2CCC[C@H]2CN1C(=O)[C@@H](NC(=O)[C@@H](NC(=O)c1cnccn1)C1CCCCC1)C(C)(C)C)C(=O)C(=O)NC1CC1 | Cathepsin S | - | - | - | IC90 | - | host protein | - | substrate cleavage | >100 µM
CN(C)[C@@H]1C(=O)C(C(N)=O)=C(O)[C@@]2(O)C(=O)C3=C(O)c4c(O)c(NC(=O)CNC(F)(F)F)cc(F)c4C[C@H]3C[C@@H]12 | - | - | Enterococcus faecalis | - | EC50 | 103-29212 | culture | - | agar diffusion | 2 µg/mL
CCOc1ccc2ccccc2c1C(=O)Nc1nnc(NCc2ccc(OC)c(OC)c2)s1 | Polymerase | - | Human cytomegalovirus | - | IC50 | - | target | - | - | <25 µM
CN(C)c1cc(NC(=O)CNC(C)(C)C)c(O)c2c1C[C@H]1C[C@H]3[C@H](N(C)C)C(=O)C(C(N)=O)=C(O)[C@@]3(O)C(=O)C1=C2O | - | - | Mycobacterium massiliense | - | MIC | X19 | culture | - | broth dilution | 2 µg/mL
O=C1Nc2ccc(Cl)cc2[C@@](C#CC2CC2)(C(F)(F)F)O1 | DNA polymerase gamma | - | Human | - | IC50 | - | host protein | - | - | 116.3 µM
Cc1cn([C@@H]2O[C@H](CO[Si](C)(C)C(C)(C)C)[C@@]3(OS(=O)(=O)C=C3N)[C@H]2O[Si](C)(C)C(C)(C)C)c(=O)[nH]c1=O | Reverse transcriptase | - | HIV | - | IC50 | - | target | RT-P140A | nucleotide incorporation / radiometric | 1.07 µM
O=C(/C=C/c1ccccc1)Nc1nnc(NCCCN2CCCC2=O)s1 | Polymerase | - | Human cytomegalovirus | - | IC50 | - | target | - | - | <25 µM
CO[C@@H]1[C@H](OC(=O)NC(=O)CCl)CC[C@]2(CO2)[C@H]1[C@@]1(C)O[C@@H]1CC=C(C)C | - | RK-13 | Encephalitozoon intestinalis | 0.1 µg/mL | inhibition | - | culture | - | - | 78.7%
C=CCc1ccc(O)c(-c2ccc(O)c(CC=C)c2)c1 | - | - | Candida albicans | - | MIC | YL 366 | culture | - | broth dilution | 64 µg/mL
O=C(Nc1nnc(NCCNc2ccccc2)s1)c1cc2ccccc2s1 | Polymerase | - | Human cytomegalovirus | - | IC50 | - | target | - | - | >25 µM
CC(C)=CCN1Cc2cc(Cl)cc3[nH]c(=S)n(c23)C[C@@H]1C | - | MT-4 | HIV-1 | - | EC95 | - | culture | RT-M41L T215Y A98G | - | >3 µM
CN(CC(C)(CCN1CCC(N(CCO)C(=O)OCc2ccc([N+](=O)[O-])cc2)CC1)c1ccsc1)S(=O)(=O)c1ccccc1 | CCR5 | - | - | - | fold resistance | - | target | CCR5-D276A | radiometric | 2
CCOc1ccc2ccccc2c1C(=O)Nc1nnc(NCCNC(C)=O)s1 | Polymerase | - | Human cytomegalovirus | - | IC50 | - | target | - | - | >25 µM
CCOC(=O)Nc1cc2c(c(N)n1)N=C(c1ccc3ccccc3c1)CS2 | - | RK-13 | Encephalitozoon intestinalis | 0.1 µg/mL | inhibition | - | culture | - | - | 29.6%
CC[C@H]1OC(=O)[C@H](C)[C@@H](O[C@H]2C[C@@](C)(OC)[C@@H](O)[C@H](C)O2)[C@H](C)[C@@H](O[C@@H]2O[C@H](C)C[C@H](N(C)C)[C@H]2O)[C@](C)(OC)C[C@@H](C)C(=O)[C@H](C)[C@@H](O)[C@]1(C)O | - | - | Mycobacterium abscessus | - | MIC | X88 | culture | - | broth dilution | 2 µg/mL
CC(=O)N[C@H]1[C@@H](O[C@@H]2O[C@H](C[C@@H](O)[C@H]3O[C@@H](n4ccc(=O)[nH]c4=O)[C@H](O)[C@@H]3O)[C@H](O)[C@H](O)[C@H]2NC(=O)/C=C/CC(C)C)O[C@H](CO)[C@@H](O)[C@@H]1O | - | RK-13 | Encephalitozoon intestinalis | 0.01 µg/mL | inhibition | - | culture | - | - | 54.5%
Nc1nc2c(ncn2[C@H]2CC[C@@H](COP(=O)(O)OP(=O)(O)OP(=O)(O)O)O2)c(=O)[nH]1 | Reverse transcriptase | - | HIV | - | IC50 | - | target | RT-N137Y | nucleotide incorporation / radiometric | 1.2 µM
C#CC[C@@H](C(=O)N[C@H](/C=C/C(=O)OCC)C[C@@H]1CCNC1=O)n1cccc(NC(=O)c2cc(C)on2)c1=O | - | H1-HELA | Rhinovirus | 0.098 µM | inhibition | Serotype 16 | culture | - | cytopathic effect / XTT | 90%
Cc1c(CSc2cccc3ccccc23)cnc2nc(N)nc(N)c12 | - | RK-13 | Encephalitozoon intestinalis | 0.01 µg/mL | inhibition | - | culture | - | - | 12.7%
CC[C@H]1C(=O)Nc2ccc(F)cc2N1C(=O)OC(C)C | Reverse transcriptase | - | HIV | - | fold resistance | - | target | RT-N137S | nucleotide incorporation / radiometric | 1.8
O=C(Nc1ncc([N+](=O)[O-])s1)c1ccccc1O | - | RK-13 | Encephalitozoon intestinalis | 1 µg/mL | inhibition | - | culture | - | - | 64%
CCOc1ccc2ccccc2c1C(=O)Nc1nnc(NCc2cccnc2)s1 | Polymerase | - | Human cytomegalovirus | - | IC50 | - | target | - | - | <25 µM
CO[C@H]1[C@@H](OC(=O)/C=C/C=C/C=C/C=C/C(=O)O)CC[C@@]2(CO2)[C@@H]1[C@@]1(C)O[C@@H]1CC=C(C)C | - | RK-13 | Encephalitozoon intestinalis | 0.001 µg/mL | inhibition | - | culture | - | - | 68.9%
COc1cc(C[C@H](C)[C@H](C)Cc2ccc(O)c(O)c2)ccc1O | - | - | Candida krusei | - | MIC50 | CCC 117-2000 | culture | - | broth dilution | 62.5 µg/mL
CC[C@]1(O)C[C@H]2CN(CCc3c([nH]c4ccccc34)[C@@](C(=O)OC)(c3cc4c(cc3OC)N(C)[C@H]3[C@@](O)(C(=O)OC)[C@H](OC(C)=O)[C@]5(CC)C=CCN6CC[C@]43[C@@H]65)C2)C1 | - | RK-13 | Encephalitozoon intestinalis | 0.1 µg/mL | inhibition | - | culture | - | - | 66.8%
O=C(/C=C/c1ccccc1)Nc1nnc(NCc2ccccn2)s1 | Polymerase | - | Human cytomegalovirus | - | IC50 | - | target | - | - | <25 µM
CCO/N=C/c1ccc(OCCC2CCN(c3ccc(C)nn3)CC2)cc1 | - | KB | Rhinovirus | - | EC50 | Baylor 1 (ICAM-1 receptor group 45) | culture | - | neutral red | 0.174 µM
Cc1ncc([N+](=O)[O-])n1CCO | - | RK-13 | Encephalitozoon intestinalis | 1 µg/mL | inhibition | - | culture | - | - | 36.2%

A second listing of 3 rows from above:

SMILES	protein	cell line	agent	dose	measure	strain or isolate	test	changes	method	result
CCOc1ccc2ccccc2c1C(=O)Nc1nnc(NCc2ccc(OC)c(OC)c2)s1	Polymerase	-	Human cytomegalovirus	-	IC50	-	target	-	-	<25 µM
CN(C)c1cc(NC(=O)CNC(C)(C)C)c(O)c2c1C[C@H]1C[C@H]3[C@H](N(C)C)C(=O)C(C(N)=O)=C(O)[C@@]3(O)C(=O)C1=C2O	-	-	Mycobacterium massiliense	-	MIC	X19	culture	-	broth dilution	2 µg/mL
O=C(/C=C/c1ccccc1)Nc1nnc(NCc2ccccn2)s1	Polymerase	-	Human cytomegalovirus	-	IC50	-	target	-	-	<25 µM